# PSTVd stem 3 mutant pool in Nicotiana benthamiana

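A pool of all variants was put on leaves of three Nicotiana benthamiana plants. Samples came from the inoculated region at 5 days, the leaf margin at 10 and upper systemic leaves at 12.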

PSTVd intermediate strain, stem 3: wild type GUGGUUCCGGAACCGC, pool pattern GUGGUUCCGNANNCNN; upper and lower strand joined, each 5' to 3', the first 8 letters being the upper strand.

Values are reads per thousand in the sample; higher means more abundant, 0 means not found. Each site shows the three plants. "Pool" is the share in the plasmid pool used as inoculum, on the same scale. The inoculated region was read from the minus strand, the other sites from the plus strand. IR is the inoculated region, LM the leaf margin, Sys the systemic leaves. The authors trace changes outside the varied positions to PCR and sequencing errors or to mutation in the plant; presence does not show that a variant is infectious alone. For reference, wild type rose from 17.3 per thousand in the pool to 330, 345, 235 (inoculated region), 794, 766, 816 (leaf margin) and 830, 792, 869 (systemic leaves). Samples held 27,691 to 54,225 reads, so the smallest values rest on one or two reads.

| sequence | pool | IR | LM | Sys |
|---|---|---|---|---|
| GUGGUUCCGAAUUCCA | 0.970 | 0.746 / 0.647 / 1.03 | 0 / 1.08 / 0.397 | 0 / 0 / 0 |
| GUGGUUCCGAAUUCGG | 0.831 | 0.773 / 0.776 / 1.08 | 0 / 0 / 0 | 0 / 0 / 0 |
| GUGGUUCCGUAACCCG | 0.923 | 0.213 / 0.539 / 0.243 | 0.0283 / 0 / 0.0361 | 0 / 0 / 0 |
| GUGGUUCCUGAACCGC | 0.185 | 0.693 / 0.582 / 1.00 | 0.822 / 1.37 / 1.01 | 1.03 / 0.775 / 0.876 |
| GUGGUUCCGUAAACUA | 1.29 | 0.880 / 0.755 / 0.270 | 0.0283 / 0.0318 / 0 | 0.130 / 0 / 0 |
| GUGGUUCCGCAUGCAU | 0.970 | 0.933 / 1.06 / 1.22 | 0.765 / 0.891 / 0.289 | 0 / 0 / 0 |
| GUGGUUCCGAAUACCG | 0.785 | 0.373 / 0.259 / 0.351 | 0 / 0 / 0 | 0 / 0 / 0 |
| GUGGUUCCGAAUACGA | 0.677 | 0.426 / 0.410 / 0.378 | 0 / 0 / 0.0361 | 0 / 0 / 0 |
| GUGGUUCCGAAACCAG | 0.831 | 0.933 / 0.776 / 1.19 | 0 / 0 / 0 | 0 / 0 / 0 |
| GUGGUUCCGUAUUCUC | 0.754 | 0.480 / 0.453 / 0.189 | 0.0283 / 0 / 0 | 0 / 0 / 0 |
| GUGGUUCCGUAACCAC | 0.769 | 0.320 / 0.604 / 0.162 | 0.0283 / 0.0318 / 0.0361 | 0 / 0 / 0 |
| GUGGUUCCGUAGGCAC | 0.954 | 0.853 / 0.690 / 1.00 | 0.0283 / 0.0318 / 0.0361 | 0 / 0 / 0 |
| GUGGUUCCGAACGCGU | 0.662 | 0.826 / 0.625 / 0.811 | 0 / 0 / 0.433 | 0 / 0 / 0 |
| GUGGUUCCGUAUACUG | 0.954 | 0.267 / 0.367 / 0.351 | 0.0283 / 0.0318 / 0.0361 | 0 / 0.0184 / 0 |
| GUGGUUCCGAACGCAG | 0.677 | 0.773 / 0.539 / 0.784 | 0 / 0 / 0.361 | 0 / 0 / 0 |
| GUGGUUCCGGAUCCAG | 0.954 | 0.267 / 0.625 / 0.432 | 0 / 0 / 0.0361 | 0 / 0 / 0 |
| GUUGUUCCGAAGGCCG | 0.0154 | 0 / 0 / 0 | 0 / 0 / 0 | 0 / 0 / 0 |
| GUGGUUCCGCAGGCGC | 0.785 | 0.506 / 0.453 / 0.297 | 0 / 0.0318 / 0.0722 | 0 / 0 / 0 |
| GUGGUUCCGGAGACUA | 0.893 | 0.453 / 0.323 / 0.243 | 0 / 0 / 0 | 0 / 0 / 0 |
| GUGGUUCCGUAACCGC | 0.954 | 0.986 / 0.712 / 1.22 | 1.76 / 1.85 / 1.26 | 1.44 / 1.14 / 0.973 |
| GUGGUUCCGGAGACAU | 0.954 | 0.666 / 0.604 / 0.865 | 0 / 0 / 0 | 1.21 / 1.05 / 0.584 |
| GUGGUUCCGCAGGCAC | 0.662 | 0.586 / 0.970 / 0.946 | 0 / 0 / 0.397 | 0 / 0 / 0 |
| GUGGGUCCGAAGCCGC | 0.0154 | 0 / 0 / 0 | 0 / 0 / 0 | 0 / 0 / 0 |
| GUGGUUCCGUACACCA | 1.02 | 0.267 / 0.302 / 0.243 | 0 / 0.0636 / 0 | 0 / 0 / 0 |
| GUGGGUCCGGAUGCGG | 0.0154 | 0 / 0 / 0 | 0 / 0 / 0 | 0 / 0 / 0 |
| GUGGUUCCGAAUGCAA | 0.816 | 0.933 / 0.668 / 0.865 | 0 / 0 / 0.289 | 0 / 0 / 0 |
| GUGGUUCCGAAAGCGC | 0.877 | 0.373 / 0.388 / 0.135 | 0.0283 / 0.0318 / 0.0722 | 0 / 0 / 0.0243 |
| GUGGUUCCGUAUUCAU | 1.72 | 1.12 / 1.10 / 1.41 | 1.50 / 1.65 / 0.289 | 1.16 / 1.31 / 0.608 |
| GUGGGUCCGAACUCUC | 0.0462 | 0 / 0 / 0 | 0 / 0 / 0 | 0 / 0 / 0 |
| GUGGUUCCGCACUCAA | 0.708 | 0.693 / 0.884 / 1.05 | 0 / 0 / 0.289 | 0 / 0 / 0 |
| GUGGUUCCGGACUCCA | 0.831 | 0.293 / 0.496 / 0.378 | 0 / 0.0318 / 0 | 0 / 0 / 0 |
| GUGGUUCCGAAGCCAC | 1.18 | 1.04 / 1.14 / 1.70 | 2.04 / 0.986 / 0.469 | 1.10 / 1.49 / 1.05 |
| GUGGUUCCGCAAGCGU | 0.646 | 0.426 / 0.367 / 0.189 | 0 / 0 / 0 | 0 / 0 / 0 |
| GUGGUUCCGGAUCCUG | 0.769 | 0.480 / 0.367 / 0.135 | 0 / 0 / 0 | 0 / 0 / 0.0243 |
| GUGGUUCCGCACCCGC | 0.754 | 0.506 / 0.173 / 0.378 | 0 / 0 / 0.0361 | 0 / 0 / 0 |
| GUGGUUCCGAACUCCC | 0.816 | 0.880 / 0.690 / 0.892 | 0 / 0 / 0.433 | 0 / 0 / 0 |

The opening 2 entries, copied out:

sequence,pool,IR,LM,Sys
GUGGUUCCGAAUUCCA,0.970,0.746 / 0.647 / 1.03,0 / 1.08 / 0.397,0 / 0 / 0
GUGGUUCCGAAUUCGG,0.831,0.773 / 0.776 / 1.08,0 / 0 / 0,0 / 0 / 0

From the data files of Wu et al. 2024, doi:10.1371/journal.ppat.1012142.